{"source": "PubChem BioAssay AID1224833 (University of Georgia, 2016)", "test": "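Human genes whose knock-down alters rotavirus replication in monkey cells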 (primary screen)", "cells": "monkey MA104 kidney cells", "knock-down reagent": "siRNA pool against human genes, 50 nM", "duration": "48 h knock-down before infection; read 24 h after infection", "conditions": "infection with rotavirus strain RV3 two days after transfection; infectious dose for this stage not given", "measured": "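Rotavirus antigen per well by fluorescent immunoassay, normalised to non-targeting control wells on each plate and given as a standard z-score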", "scale": "z-score vs non-targeting control: higher = more rotavirus replication than with non-targeting control", "rule for the call": "In these data the active calls have z-score vs non-targeting control at about -1 or lower, or at about 1 or higher", "meaning of the calls": "active = z-score beyond 1 either way; inactive = z-score within 1 of zero", "note": "The whole screen tested about 12,000 reagents; this is a random part of them. About 5,600 of all reagents (46%) were called active. 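Active calls cover z-scores past 1 in both directions, so they include lowered as well as raised rotavirus replication.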 A number with no mark means an inactive call."}
{"gene symbol": "C10orf95 (chromosome 10 open reading frame 95)", "z-score vs non-targeting control": "1.44 (active)"}
{"gene symbol": "MIS18A (MIS18 kinetochore protein A)", "z-score vs non-targeting control": 0.855}
{"gene symbol": "BLCAP (BLCAP apoptosis inducing factor)", "z-score vs non-targeting control": -0.505}
{"gene symbol": "SF3B5 (splicing factor 3b subunit 5)", "z-score vs non-targeting control": -0.21}
{"gene symbol": "DRC2 (dynein regulatory complex subunit 2)", "z-score vs non-targeting control": -0.572}
{"gene symbol": "C3orf70 (chromosome 3 open reading frame 70)", "z-score vs non-targeting control": "-1.79 (active)"}
{"gene symbol": "SPP1 (secreted phosphoprotein 1)", "z-score vs non-targeting control": -0.744}
{"gene symbol": "ACTA1 (actin alpha 1, skeletal muscle)", "z-score vs non-targeting control": "-1.14 (active)"}
{"gene symbol": "SERPINA6 (serpin family A member 6)", "z-score vs non-targeting control": "1.51 (active)"}
{"gene symbol": "H4C5 (H4 clustered histone 5)", "z-score vs non-targeting control": -0.241}
{"gene symbol": "ESCO1", "z-score vs non-targeting control": "-1.08 (active)"}
{"gene symbol": "PIGW (phosphatidylinositol glycan anchor biosynthesis class W)", "z-score vs non-targeting control": -0.513}
{"gene symbol": "MPLKIP (M-phase specific PLK1 interacting protein)", "z-score vs non-targeting control": "1.57 (active)"}
{"gene symbol": "CYLC1 (cylicin 1)", "z-score vs non-targeting control": "-2.49 (active)"}
{"gene symbol": "CXCR3 (C-X-C motif chemokine receptor 3)", "z-score vs non-targeting control": "1.21 (active)"}
{"gene symbol": "CDH24 (cadherin 24)", "z-score vs non-targeting control": 0.0382}
{"gene symbol": "CHPT1 (choline phosphotransferase 1)", "z-score vs non-targeting control": "1.1 (active)"}
{"gene symbol": "CXCL10 (C-X-C motif chemokine ligand 10)", "z-score vs non-targeting control": 0.113}
{"gene symbol": "ZFYVE21 (zinc finger FYVE-type containing 21)", "z-score vs non-targeting control": "1.13 (active)"}
{"gene symbol": "LIX1 (limb and CNS expressed 1)", "z-score vs non-targeting control": 0.389}
{"gene symbol": "SPIN2A (spindlin family member 2A)", "z-score vs non-targeting control": 0.565}
{"gene symbol": "ZNF569 (zinc finger protein 569)", "z-score vs non-targeting control": 0.63}
{"gene symbol": "NPHP4 (nephrocystin 4)", "z-score vs non-targeting control": -0.47}
{"gene symbol": "LYG2 (lysozyme g2)", "z-score vs non-targeting control": "1.5 (active)"}
{"gene symbol": "TECTA (tectorin alpha)", "z-score vs non-targeting control": -0.878}
{"gene symbol": "GCN1 (GCN1 activator of EIF2AK4)", "z-score vs non-targeting control": "-3.13 (active)"}
{"gene symbol": "TTC39A (tetratricopeptide repeat domain 39A)", "z-score vs non-targeting control": -0.241}
{"gene symbol": "TBCCD1 (TBCC domain containing 1)", "z-score vs non-targeting control": "-2.26 (active)"}
{"gene symbol": "MADCAM1 (mucosal vascular addressin cell adhesion molecule 1)", "z-score vs non-targeting control": -0.323}
{"gene symbol": "CENPN (centromere protein N)", "z-score vs non-targeting control": "-1.8 (active)"}
{"gene symbol": "ADAMTS10 (ADAM metallopeptidase with thrombospondin type 1 motif 10)", "z-score vs non-targeting control": 0.687}
{"gene symbol": "CPSF4 (cleavage and polyadenylation specific factor 4)", "z-score vs non-targeting control": -0.952}

3 successive records already listed, for reference:
{"gene symbol": "ACTA1 (actin alpha 1, skeletal muscle)", "z-score vs non-targeting control": "-1.14 (active)"}
{"gene symbol": "SERPINA6 (serpin family A member 6)", "z-score vs non-targeting control": "1.51 (active)"}
{"gene symbol": "H4C5 (H4 clustered histone 5)", "z-score vs non-targeting control": -0.241}
